Reference: patent publication US20220356229A1 (published 2022)
Like-named read-outs stand apart in the source and are kept apart here.

B1: anti-SARS-CoV-2 antibody 532 (antibody, V domains shown)
VH: EVQLVESGGGLVQPGGSLRLSCAASGIIVSSNYMSWVRQAPGKGLEWVSVIYSGGSTYYADSVKGRFTISRDNSKNTLYLQMNSLRAEDTAVYYCAREGLVGATLAFDYWGQGTLVTVSS
VL: not shown
B2: anti-SARS-CoV-2 antibody 400 (antibody, V domains shown)
VH: QVQLVESGGGVVQPGRSLRLSCAASGFTFSSYGMHWVRQAPGKGLEWVAVISYDGSNKYYADSVKGRFTISRDNSKNTLYLQMNSLRAEDTAVYYCAKAIDILTGYGPGGMDVWGQGTTVTVSS
VL: QSVLTQPPSASGTPGQRVTISCSGSSSNIGSNYVYWYQQLPGTAPKLLIYRNNQRPSGVPDRFSGSKSGTSASLAISGLRSEDEADYYCAAWDDSLSGVVFGGGTKLTVL

What was measured:
Assay in all cases: multiplexed bead assay, flow cytometry
[1] = molecular target: T1, SARS-CoV Spike protein (full length Spike, coupled to optically encoded beads) (SARS-CoV, UniProt P59594 14-1190)
[2] = molecular target: T1, SARS-CoV Spike protein (full length …); remark: listed apart in the source
[3] = molecular target: T2, SARS-CoV Spike protein (full length Spike, coupled to optically encoded beads) (SARS-CoV, UniProt P59594 14-1190); remark: listed apart in the source
[4] = molecular target: T2, SARS-CoV Spike protein (full length …); remark: listed apart in the source

Binder	fold over isotype control (median fluorescence) [1] [fold over isotype]	fold over isotype control (median fluorescence) [2] [fold over isotype]	median fluorescence, fold over isotype [3] [fold over isotype]	median fluorescence, fold over isotype [4] [fold over isotype]
B1	1	0.8	–	–
B2	–	–	1	0.91
